The nature of this series: Polyphenol test: Ferric Chloride reaction. The arrangement: key: (0), denotes no reaction; positive signs (+, ++, +++) denote increasing strength of Ferric Chloride reaction as measured by a colorimetric score; positive signs (+, ++, +++) denote increasing strength of Ferric Chloride reaction as measured by a colorimetric score; positive signs (+, ++, +++) denote increasing strength of Ferric Chloride reaction as measured by a colorimetric score. Particulars: 50 uL extract + 50 uL 10% aqueous ferric chloride, 96-well dish; extract strength and solvent as in label.

As to `O=C(O)/C=C/c1ccc(O)c(O)c1` [Caffeic acid (1%) in 70% ethanol, Caffeic acid], the “Ferric Chloride reaction, colorimetric score” value is reported as “Caffeic acid (1%) in 70% ethanol ((+++)”.

Turning to `O=C(O)c1cc(O)c(O)c(O)c1` [Gallic acid (1%) in 70% ethanol, Gallic acid], the “Ferric Chloride reaction, colorimetric score” value is “Gallic acid (1%) in 70% ethanol (+++)”.

Source of the values: patent US20080003190A1, “Antibacterial botanicals” (priority 2006, published 2008).
